A mixed list of measured activities; the numbers were collected in NIAID ChemDB.

All rows: growth or infection tests; agent: HIV-1

Neighbouring rows are from separate reports.

SMILES,strain,cell line,changes,endpoint,read by,conditions,result
CC(C)=CCOc1cc(NC(=S)c2ccsc2C)ccc1Cl,UC38-RS (RT-Y181C),CEM + CEM-SS,RT-Y181C,EC50,cytopathic effect / XTT,-,0.2 µM
CC(C)C1=C2[C@H]3CC[C@@H]4[C@@]5(C)CC[C@H](OC(=O)CC(C)(C)C(=O)O)C(C)(C)[C@@H]5CC[C@@]4(C)[C@]3(C)CC[C@@]2(NC(=O)c2cccnc2)CC1=O,IIIB,MT-2,-,EC50,RT activity,30% human serum,<0.199 µM
O=C(c1ccccc1)N(CCc1ccccc1)C[C@H](O)CN(CC1CCCC1)S(=O)(=O)CC1CCS(=O)(=O)CC1,IIIB,CEM,-,EC90,p24,-,1 µM
CN1c2ccccc2C2C1C=C(c1nc(=S)o[nH]1)C(=O)N2c1ccc([N+](=O)[O-])cc1,LAI,MT-4,-,EC50,cytopathic effect / MTT,-,1–32 µM
O=C(Nc1cscc1S(=O)(=O)c1ccccc1)C(=O)C(=O)N(CC1CCCC1)S(=O)(=O)c1ccccc1,IIIB,CEM,-,EC90,p24,-,1 µM
Cc1cnc(C(=O)N[C@@]23CC[C@]4(C)C(CCC5[C@@]6(C)CC[C@H](OC(=O)CC(C)(C)C(=O)O)C(C)(C)C6CC[C@]54C)C2=C(C(C)C)C(=O)C3)o1,IIIB,MT-2,-,EC50,RT activity,30% human serum,<0.199 µM
CC(C)C1=C2[C@H]3CC[C@@H]4[C@@]5(C)CC[C@H](OC(=O)[C@H]6C[C@@H](C(=O)O)C6(C)C)C(C)(C)[C@@H]5CC[C@@]4(C)[C@]3(C)CC[C@@]2([C@@H](O)CNC(=O)c2ccc(OCCN3CCOCC3)cc2)CC1=O,92HT599,MT-2,-,EC50,p24 / ELISA,-,<1 µM
COc1ccc(S(=O)(=O)N(CC(C)C)CC(O)CN2CCN(Cc3cccnc3)C[C@H]2C(=O)NC(C)(C)C)cc1,IIIB,CEM,-,EC90,p24,-,1 µM
CC(C)C1=C2[C@H]3CC[C@@H]4[C@@]5(C)CC[C@H](OC(=O)[C@H]6C[C@@H](C(=O)O)C6(C)C)C(C)(C)[C@@H]5CC[C@@]4(C)[C@]3(C)CC[C@@]2(CC(=O)NCc2ncccn2)CC1=O,92HT599,MT-2,-,EC50,p24 / ELISA,-,<1 µM
COc1ccc(S(=O)(=O)N(CC(C)C)CC(O)CCN2CSCC2C(=O)NC(C)(C)C)cc1,IIIB,CEM,-,EC50,p24,-,<1 µM
CC(C)C1=C2C3CCC4[C@@]5(C)CC[C@H](OC(=O)CC(C)(C)C(=O)O)C(C)(C)C5CC[C@@]4(C)[C@]3(C)CC[C@@]2(NC(=O)NCc2cncnc2)CC1=O,IIIB,MT-2,-,EC50,RT activity,30% human serum,<0.199 µM
N#CC1=CC2C(c3ccccc3N2C2CCCC2)N(c2ccc([N+](=O)[O-])cc2)C1=O,LAI,MT-4,-,EC50,cytopathic effect / MTT,-,1–32 µM
CC(C)C1=C2[C@H]3CC[C@@H]4[C@@]5(C)CC[C@H](OC(=O)[C@H]6C[C@@H](C(=O)O)C6(C)C)C(C)(C)[C@@H]5CC[C@@]4(C)[C@]3(C)CC[C@@]2(CCNCc2ccc(Cl)cc2OCCN(C)C)CC1=O,92HT599,MT-2,-,EC50,p24 / ELISA,-,<1 µM
Cn1c2ccccc2c2c1cc(C#N)c(=O)n2-c1ccc([N+](=O)[O-])cc1,I,MT-4,RT-K101E K103N,EC50,cytopathic effect / MTT,-,0.06 µM
CC(C)C1=C2[C@H]3CC[C@@H]4[C@@]5(C)CC[C@H](OC(=O)[C@H]6C[C@@H](C(=O)O)C6(C)C)C(C)(C)[C@@H]5CC[C@@]4(C)[C@]3(C)CC[C@@]2(CCNC(=O)c2ccc(N3CCCCC3)cc2)CC1=O,92HT599,MT-2,-,EC50,p24 / ELISA,-,<1 µM
CC(C)=CCOc1cc(NC(=S)c2ccoc2C)ccc1Cl,4XAZT+L100I,CEM + CEM-SS,-,EC50,cytopathic effect / XTT,-,0.2 µM
CC(C)C1=C2C3CCC4[C@@]5(C)CC[C@H](OC(=O)CC(C)(C)C(=O)O)C(C)(C)C5CC[C@@]4(C)[C@]3(C)CC[C@@]2(NC(=O)NCC2CC2)CC1=O,IIIB,MT-2,-,EC50,RT activity,30% human serum,0.2–0.999 µM
CC(C)C1=C2[C@H]3CC[C@@H]4[C@@]5(C)CC[C@H](OC(=O)[C@H]6C[C@@H](C(=O)O)C6(C)C)C(C)(C)[C@@H]5CC[C@@]4(C)[C@]3(C)CC[C@@]2([C@@H](O)CNC(=O)c2ccc(CN3CCC(O)CC3)cc2)CC1=O,92HT599,MT-2,-,EC50,p24 / ELISA,-,<1 µM
CC(C)C1=C2C3CCC4[C@@]5(C)CC[C@H](OC(=O)CC(C)(C)C(=O)O)C(C)(C)C5CC[C@@]4(C)[C@]3(C)CC[C@@]2(NC(=O)OC2CCCC2)CC1=O,IIIB,MT-2,-,EC50,RT activity,30% human serum,<0.199 µM
Cc1noc(C)c1-c1ccc(N2C(=O)C(C#N)=CC3C2c2ccccc2N3C)cc1,LAI,MT-4,-,EC50,cytopathic effect / MTT,-,1–32 µM
CC(C)C1=C2[C@H]3CC[C@@H]4[C@@]5(C)CC[C@H](OC(=O)CC(C)(C)C(=O)O)C(C)(C)[C@@H]5CC[C@@]4(C)[C@]3(C)CC[C@@]2(NC(=O)[C@H]2CCCN2C)CC1=O,IIIB,MT-2,-,EC50,RT activity,30% human serum,<0.199 µM
N#CC1=CC2C(c3ccccc3N2Cc2cccnc2)N(c2ccc([N+](=O)[O-])cc2)C1=O,LAI,MT-4,-,EC50,cytopathic effect / MTT,-,1–32 µM
[2H]C(CO)(NC(=O)c1ccc(Cl)cc1)C(=O)NC[C@H](O)[C@@]12CC[C@]3(C)[C@H](CC[C@@H]4[C@@]5(C)CC[C@H](OC(=O)[C@H]6C[C@@H](C(=O)O)C6(C)C)C(C)(C)[C@@H]5CC[C@]43C)C1=C(C(C)C)C(=O)C2,92HT599,MT-2,-,EC50,p24 / ELISA,-,<1 µM
CN1c2ccccc2C2C1C=CC(=O)N2c1ccc(-c2ncon2)cc1,LAI,MT-4,-,EC50,cytopathic effect / MTT,-,1–32 µM
CC(C)C1=C2[C@H]3CC[C@@H]4[C@@]5(C)CC[C@H](OC(=O)CC(C)(C)C(=O)O)C(C)(C)[C@@H]5CC[C@@]4(C)[C@]3(C)CC[C@@]2(NC(=O)CN2CCN(C)CC2)CC1=O,IIIB,MT-2,-,EC50,RT activity,30% human serum,<0.199 µM
O=C(c1ccccc1)N(CCc1ccccc1)C[C@H](O)CN(CC1CCCC1)S(=O)(=O)c1cc(C(F)(F)F)cc2[nH]cnc12,IIIB,CEM,-,EC90,p24,-,1 µM
CCOC(=O)CN1c2ccccc2C2C1C=C(C#N)C(=O)N2c1ccc([N+](=O)[O-])cc1,LAI,MT-4,-,EC50,cytopathic effect / MTT,-,1–32 µM

4 of the rows above, restated:

SMILES,strain,cell line,changes,endpoint,read by,conditions,result
COc1ccc(S(=O)(=O)N(CC(C)C)CC(O)CCN2CSCC2C(=O)NC(C)(C)C)cc1,IIIB,CEM,-,EC50,p24,-,<1 µM
CC(C)C1=C2C3CCC4[C@@]5(C)CC[C@H](OC(=O)CC(C)(C)C(=O)O)C(C)(C)C5CC[C@@]4(C)[C@]3(C)CC[C@@]2(NC(=O)OC2CCCC2)CC1=O,IIIB,MT-2,-,EC50,RT activity,30% human serum,<0.199 µM
O=C(Nc1cscc1S(=O)(=O)c1ccccc1)C(=O)C(=O)N(CC1CCCC1)S(=O)(=O)c1ccccc1,IIIB,CEM,-,EC90,p24,-,1 µM
CC(C)C1=C2C3CCC4[C@@]5(C)CC[C@H](OC(=O)CC(C)(C)C(=O)O)C(C)(C)C5CC[C@@]4(C)[C@]3(C)CC[C@@]2(NC(=O)NCc2cncnc2)CC1=O,IIIB,MT-2,-,EC50,RT activity,30% human serum,<0.199 µM

ECn is the concentration giving n% inhibition of infection, replication or growth. An empty or dashed field is not shown. Two numbers with a dash give a range or band.